Laboratory results from patent US10570176B2 (priority 2015, dated 2020).
Non-standard residues stand in square brackets, D forms with d. No end group written: not given here.

Experiment: peptide synthesis
Details: whole synthesis, HPLC (Agela C18 column)

Substance: G[dS][dA][dV][dM][dF][dS][dS][dK][dE][dR]G
- purity (crude or final not stated): 97.2%
